A mixed list of measured activities; the numbers were collected in NIAID ChemDB.

Shared fields: tests in culture; species: HIV-1

ECn is the concentration giving n% inhibition of infection, replication or growth.

structure,cells,strain,measure,changes,read by,value
COc1cc(-c2ccc(N=Nc3ccc4c(S(=O)(=O)O)cc(S(=O)(=O)O)c(N)c4c3O)c(OC)c2)ccc1N=Nc1ccc2c(S(=O)(=O)O)cc(S(=O)(=O)O)c(N)c2c1O,CEM + CEM-SS,214,EC50,-,cytopathic effect / XTT,0.6 µM
CCN1c2ncc(CCOc3ccc(C(=O)Nc4ccc(C(=O)O)cc4)cc3C)cc2C(=O)Nc2c(C)ccnc21,C8166,IIIB,EC50,-,p24,0.01–0.05 µM
C[C@]1(Cn2cnc3c(=O)[nH]c(N)nc32)[C@H](COCP(=O)(O)O)C1(F)F,MT-4,RF,EC50,-,-,90 µM
CN1N=C(N)c2cn([C@@H]3O[C@H](COP(=O)(O)O)[C@@H](O)[C@H]3O)c3ncnc1c23,CEM,IIIB,EC50,-,syncytia,0.01 µM
CC(C)[C@@H](NC(=O)c1ccccc1)C(=O)N/N=C/c1c(F)cccc1Cl,MT-4,IIIB,EC50,-,MTT,>332 µM
Nc1nc2c(ncn2[C@H]2C=C[C@@H](CO)[C@@H]2CO)c(=O)[nH]1,MT-4,IIIB,EC50,-,XTT,>100 µg/mL
CCCOC(=O)c1ccc(C)c(NC(=O)C2=C(C)OCCS2)c1,CEM,TSAO-resistant (RT E138K),EC50,RT-E138K,syncytia,>10 µg/mL
c1ccc(CN2CCc3cncn3CC2)cc1,CEM + CEM-SS,LAI,EC50,-,RT activity,165 µM
CCC1=C(C(=O)Nc2ccc(Cl)c(C(=O)OC(C)C)c2)SCCO1,CEM,Nevirapine-resistant (RT V106A),EC50,RT-V106A,syncytia,6 µg/mL
Cn1cc(C(=O)O)c(=O)c2cc(N)c(N3CCN(c4nccs4)CC3)cc21,PBMC,IIIB,EC50,-,p24,0.032 µg/mL
NCCCCCCCCCCCCNC(=O)Cc1cn([C@@H]2C=C[C@H](CO)O2)c(=O)[nH]c1=O,CEM + CEM-SS,IIIB,EC50,-,cytopathic effect / MTT,>100 µM
Nc1ncnc2c1ncn2[C@H]1C[C@@H](CO)[C@H](O)[C@@H]1O,PBMC,LAV,EC50,-,-,>100 µM
CCc1cn([C@@H]2O[C@H](CO)[C@@H](O)[C@@]2(C)F)c2ncnc(N)c12,PBMC,-,EC90,-,-,>100 µM
CCN1c2ncc(CCOc3ccc(-c4ccc(C(=O)O)c(Cl)c4)cc3C)cc2C(=O)N(C)c2cccnc21,C8166,IIIB,EC50,-,p24,0.01–0.05 µM
Nc1ccn([C@H]2CC[C@@H](CO)O2)c(=O)n1,MT-4,-,EC50,Y188L,MTT,0.09 µM
C[C@@]1(F)[C@H](O)[C@@H](CO)O[C@H]1n1cc(Cl)c2c(N)ncnc21,PBMC,-,EC90,-,-,>100 µM
COC(=O)Oc1ccc(NC(=O)C2=C(C)OCCS2)cc1C(=O)OC(C)C,CEM,Nevirapine-resistant (RT V106A),EC50,RT-V106A,syncytia,>10 µg/mL
Cc1c(C)c(S(=O)(=O)NC(N)=NCCCC(N)C(=O)N2CCCC2C#N)c(C)c2c1C(C)(C)OC(C)(C)C2(C)C,CEM,IIIB,EC50,-,p24,2.4 µM
CCc1c(Cc2cc(C)cc(C)c2)n(COCC#Cc2ccc(C=O)cc2)c(=O)[nH]c1=O,MT-4,IIIB,EC50,WT,MTT,0.01 µM
O=C(O)C(O)c1ccccc1,U87 (CD4+ CXCR4+) + U87,IIIB,EC50,-,p24,<10 µg/mL
NC(=O)C[C@H](NC(=O)c1ccc2ccccc2n1)C(=O)N[C@@H](Cc1ccccc1)[C@H](O)CN(Cc1ccccc1)S(=O)(=O)c1cccc(S(N)(=O)=O)c1,CEM,IIIB,EC50,-,p24,<0.101 µM
CC(C)NC(=O)c1cc(F)ccc1CNC(=O)c1nc(N2CCCCS2(=O)=O)c2cccnc2c1O,MT-4,-,EC95,-,p24,<5 µM
O=c1ccn(C2CC(CO)(CO)C2)c(=O)[nH]1,CEM,LAV,EC50,-,cytopathic effect,>30 µg/mL
CN(C)C(=O)c1cc(F)ccc1CNC(=O)c1nc(N(C)S(C)(=O)=O)c2cccnc2c1O,MT-4,-,EC50,-,p24,<5 µM
C=CCOC(=O)N[C@@H](Cc1ccccc1)[C@H](O)CN(CC1CCCC1)S(=O)(=O)c1ccc(OC)cc1,CEM,IIIB,EC50,-,p24,<0.101 µM
CC1(C)OC(c2cnn(-c3ccccc3)n2)C(C2CO2)O1,CEM + CEM-SS,IIIB,EC50,-,cytopathic effect / MTS,>100 µM
CC(C)OC(=O)c1cc(NC(=S)OC(C)C)ccc1Cl,CEM,IIIB,EC50,RT-Y181C,syncytia,1.9 µM
CNC(=O)c1ccccc1CNC(=O)c1nc(N2CCCCS2(=O)=O)c2cccnc2c1O,MT-4,-,EC95,-,p24,<5 µM
C=C(C)[C@@H]1CC[C@]2(CNCC(=O)NS(=O)(=O)C3CC3)CC[C@]3(C)[C@H](CC[C@@H]4[C@@]5(C)CC=C(c6ccc(C(=O)O)cc6)C(C)(C)[C@@H]5CC[C@]43C)[C@@H]12,MT-2,NL4-3,EC50,-,-,<0.1 µM
CC(C)=CCN1CCc2cncn2CC1,CEM + CEM-SS,LAI,EC50,-,RT activity,>100 µM
Clc1ccc(-c2nnc3n2N=C(c2ccccc2)CS3)cc1Cl,MT-4,IIIB,EC50,-,MTT,>1.97 µg/mL
C[C@@]1(F)[C@H](O)[C@@H](CO)O[C@H]1n1cc(I)c2c(N)ncnc21,PBMC,-,EC90,-,-,>100 µM
Cc1cn([C@H]2C[C@H](N=[N+]=[N-])[C@@H](CO)O2)c(=O)[nH]c1=O,CEM + CEM-SS,IIIB,EC50,-,cytopathic effect / MTS,0.003 µM
CN(C[C@@H](CCN1CCC2(CC1)CS(=O)c1ccccc12)c1cccc(Cl)c1)S(=O)(=O)c1ccccc1,PBMC,YU2,EC95,-,p24,12.5–25 µM
CC(C)[C@@H](NC(=O)c1ccccc1)C(=O)N/N=C/c1c(F)cccc1F,MT-4,IIIB,EC50,-,MTT,>348 µM
NC(=O)c1cc(F)ccc1CNC(=O)c1nc(N2CCCCS2(=O)=O)c2cccnc2c1O,MT-4,-,EC95,-,p24,<5 µM
NCCCCCCNC(=O)Cc1cn([C@H]2C=C[C@@H](CO)O2)c(=O)[nH]c1=O,CEM + CEM-SS,LAI,EC50,-,cytopathic effect / MTT,>100 µM
NC1=Nn2c(nnc2-c2ccc(Cl)c(Cl)c2)SC1,MT-4,IIIB,EC50,-,MTT,>2.7 µg/mL
CC(C)CN(C[C@@H](O)[C@H](Cc1ccccc1)NC(=O)O[C@@H]1CCOC1)S(=O)(=O)c1ccoc1,CEM,IIIB,EC50,-,p24,<0.101 µM
CCN1c2ncc(CCOc3ccc(-c4ccc(C(=O)O)cn4)cc3C)cc2C(=O)N(C)c2cccnc21,C8166,-,EC50,RT-K103N Y181C,p24,0.01–0.05 µM
CCc1c(Cc2ccccc2C)n(COCC#Cc2ccc(NC(=O)C(F)(F)F)cc2)c(=O)[nH]c1=O,MT-4,IIIB,EC50,EFV-resistant (K103R V179D P225H),MTT,>45 µM
CCC(=O)c1ccc(F)c(C2CC2NC(=O)Nc2ccc(Br)cn2)c1O,MT-4,IIIB,EC50,RT-L100I,cytopathic effect / XTT,0.1 µM
C=C(C)[C@@H]1CC[C@]2(CNCC(OC)OC)CC[C@]3(C)[C@H](CC[C@@H]4[C@@]5(C)CC=C(c6ccc(C(=O)O)cc6)C(C)(C)[C@@H]5CC[C@]43C)[C@@H]12,MT-2,NL4-3,EC50,-,-,<0.1 µM
Oc1ccc(-c2nnc3sc(-c4cnccn4)nn23)c(Cl)c1Cl,MT-4,IIIB,EC50,-,MTT,>2.11 µg/mL
Cc1cn([C@H]2C[C@H](N=[N+]=[N-])[C@@H](CO)O2)c(=O)[nH]c1=O,PBMC,BR-92-025 (subtype C),EC50,-,RT activity,0.00095 µM
CCC[C@@]1(CCc2ccccc2)CC(O)=C([C@H](CC)c2cccc(NS(=O)(=O)c3ccc(C(F)(F)F)cn3)c2)C(=O)O1,MT-4,T14434,EC50,R41T K70E V77I/V,reporter gene,175 nM
CC1=C(C(=O)Nc2cc(C(=O)OC(C)C)c(C)cc2F)SCCO1,CEM,PYR-resistant (RT Y181C),EC50,RT-Y181C,syncytia,>10 µg/mL
CCc1c(Cc2cc(C)cc(C)c2)n(COCc2ccc(C#CCO)cc2)c(=O)[nH]c1=O,MT-4,IIIB,EC50,K103N + Y181C,MTT,0.6 µM
CSc1cc(N)nc(S[C@@H](C)c2cc3ccoc3cn2)n1,MT-4,IIIB,EC90,-,p24,0.008 µM
CC(C)CN(C[C@@H](O)[C@H](Cc1ccccc1)NC(=O)OC1CCOC1)S(=O)(=O)c1ccc(Cl)cc1,CEM,IIIB,EC50,-,p24,<0.101 µM
O=C1OC(CCl)(c2ccccc2)c2ccccc21,TZM-bl,IIIB,EC50,-,luciferase,15.46 µM
COC(=O)/C=C/c1cn([C@@H]2O[C@H](CO)[C@@H](O)[C@@]2(C)F)c2ncnc(N)c12,PBMC,-,EC90,-,-,>100 µM
O=P(O)(O)OP(=O)(O)OP(=O)(O)OP(=O)(O)O,MOLT-4/MOLT-3,IIIB,EC50,-,syncytia,>160 µg/mL
CC1(C)OC(c2cnn(-c3ccccc3)n2)C(C(O)CN2CCCC2)O1,CEM + CEM-SS,RF,EC50,-,cytopathic effect / MTS,>100 µM
Cn1cc(C(=O)O)c(=O)c2cc(N)c(N3CCN(c4nc5ccccc5o4)CC3)cc21,MT-4,IIIB,EC50,-,cytopathic effect / MTT,0.015 µg/mL
Nc1nc2c(ncn2[C@H]2C=C[C@@H](CO)C2)c(=O)[nH]1,C8166,-,EC50,-,cytopathic effect,0.12 µg/mL
CCC(=O)c1ccc(F)c([C@@H]2C[C@@H]2NC(=O)Nc2ccc(Cl)cn2)c1O,MT-4,IIIB,EC50,-,cytopathic effect / XTT,0.029 µM
CCSCC1=C(C(=O)Nc2ccc(Cl)c(C(=O)OC(C)C)c2)SCCO1,CEM,Nevirapine-resistant (RT V106A),EC50,RT-V106A,syncytia,8.5 µg/mL
C[C@@H]1CCO[C@H]2Cn3cc(C(=O)NCc4ccc(F)cc4F)c(=O)c(O)c3C(=O)N12,TZM-bl,-,EC50,V72I/L74F/V75I,luciferase / luminescence,0.0013 µM
CC(C)CN(C[C@@H](O)[C@H](Cc1ccccc1)NC(=O)[C@H](CC(N)=O)NC(=O)c1ccc2ccccc2n1)S(=O)(=O)c1ccc(-c2ccccn2)s1,CEM,IIIB,EC90,-,p24,<0.1 µM
C[C@]1(Cn2cnc3c(=O)[nH]c(N)nc32)[C@@H](COCP(=O)(O)O)C1(F)F,MT-4,RF,EC50,-,-,26 µM
CC1=C(C(=O)Nc2ccc(C)c(C(=O)OC(C)C)c2)SCCO1,CEM,Nevirapine-resistant (RT V106A),EC50,RT-V106A,syncytia,>10 µg/mL
Oc1ccc(-c2nn3c(-c4ccc(O)c(Cl)c4Cl)nnc3s2)c(Cl)c1Cl,MT-4,IIIB,EC50,-,MTT,>67.8 µg/mL
CCC(=O)Oc1ccc(NC(=O)C2=C(C)OCCS2)cc1C(=O)OC(C)C,CEM,TIBO-resistant (RT L100I),EC50,RT-L100I,syncytia,>10 µg/mL
CCc1c(Cc2cc(C)cc(C)c2)n(COCC#Cc2cccc(C#N)c2)c(=O)[nH]c1=O,MT-4,IIIB,EC50,WT,MTT,0.01 µM
CC(C)[C@H](NC(=O)OCc1ccccn1)C(=O)N[C@@H](Cc1ccccc1)[C@@H](O)C[C@H](Cc1ccccc1)NC(=O)OCc1cccnc1,PBMC,Isolate A PR L10V/T12I/G16E/R57K/I64V,EC50,PR-L10V T12I G16E R57K I64V,p24,<0.8 µM
CCC1=C(C(=O)Nc2ccc(Cl)c(C(=O)OCC(C)C)c2)SCCO1,CEM,Nevirapine-resistant (RT V106A),EC50,RT-V106A,syncytia,3 µg/mL
Nn1c(-c2ccc(O)c(Cl)c2Cl)n[nH]c1=S,MT-4,IIIB,EC50,-,MTT,>72.83 µg/mL
NCCCCCCCCNC(=O)Cc1cn([C@H]2C=C[C@@H](CO)O2)c(=O)[nH]c1=O,CEM + CEM-SS,LAI,EC50,-,cytopathic effect / MTT,>100 µM
CCCCCCCCCCCCCC=O,H9,IIIB,EC50,-,RT activity,<10 µg/mL
CC(C)[C@H](NC(=O)c1ccccc1)C(=O)N/N=C/c1ccccc1F,MT-4,IIIB,EC50,-,MTT,123.8 µM
Nc1nc2c(ccn2C2CC(CO)(CO)C2)c(=O)[nH]1,CEM,LAV,EC50,-,cytopathic effect,>30 µg/mL
CC(C)=CCOc1cc(NC(=S)c2ccoc2C)ccc1Cl,CEM,IIIB,EC50,RT-L100I,syncytia,0.024 µM
CCN1c2ncc(CCOc3ccc(-c4cc[n+]([O-])cc4)cc3)cc2C(=O)N(C)c2cccnc21,C8166,IIIB,EC50,-,p24,<0.01 µM
COC(=O)/C=C/c1cn([C@H]2O[C@H](CO)[C@@H](O)[C@@]2(C)F)c2ncnc(N)c12,PBMC,-,EC90,-,-,9.5 µM
CCc1c(Cc2cc(C)cc(C)c2)n(COCC#Cc2cccs2)c(=O)[nH]c1=O,MT-4,IIIB,EC50,EFV-resistant (K103R V179D P225H),MTT,15 µM
NCCCCCCCCCCNC(=O)Cc1cn([C@H]2C=C[C@@H](CO)O2)c(=O)[nH]c1=O,CEM + CEM-SS,IIIB,EC50,-,cytopathic effect / MTT,>100 µM
CCc1c(Cc2cc(C)cc(C)c2)n(COCC#Cc2ccc(N)cc2)c(=O)[nH]c1=O,MT-4,IIIB,EC50,WT,MTT,0.007 µM
Clc1ccc(-c2nnc3sc(-c4cnccn4)nn23)cc1Cl,MT-4,IIIB,EC50,-,MTT,>2.11 µg/mL
CC1=C(C(=O)Nc2ccc(Cl)c(C(=O)OC3CCCCC3)c2)SCCO1,CEM,PYR-resistant (RT Y181C),EC50,RT-Y181C,syncytia,0.5 µg/mL
Nn1c(-c2ccc(O)c(Br)c2)n[nH]c1=S,MT-4,IIIB,EC50,-,MTT,>75.4 µg/mL
O=C(N[C@@H](Cc1ccccc1)[C@H](O)CN(CC1CCCC1)S(=O)(=O)c1ccc(OC(F)(F)F)cc1)O[C@H]1CCOC1,CEM,IIIB,EC50,-,p24,<1.001 µM
CN(C)c1ccc(Nc2c3ccc(NC(=O)CCN4CCCC4)cc3nc3cc(NC(=O)CCN4CCCC4)ccc23)cc1,PBMC,IIIB,EC50,-,p24 / antigen,28.3 µM

a–b is a range or a potency band. Rows are shuffled and stem from different studies. Blank or dashed fields: not listed here.